From the supplement of paper PMC9931576 come the findings set out here.

Changes are numbered by the printed parent chain. Human monoclonal antibodies against the spike receptor-binding domain (heavy:light variable regions). IC50 against pseudoviruses bearing the spike of naturally observed variants; lower = stronger; >10 µg/ml means not reached at the top dose. No active / inactive call. The stated detection limit is 0.0005 µg/ml; values near or below 0.001 µg/ml lie at the floor of the assay. Some results are limits rather than exact numbers.

Holding throughout (assay): pseudovirus neutralization IC50; higher = weaker neutralization
In experiment [1] the target is SARS-CoV-2 Omicron BA.1 spike pseudovirus. As for the experimental part:
(§1)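 Single-round VSV luciferase pseudovirus mixed with antibody dilutions for 1 h and put on Huh-7 cells for about a day; IC50 from the dose curve.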

Experiment [2] addresses SARS-CoV-2 Omicron BA.2 spike pseudovirus. As for the experimental part:
as §1

The target in experiment [3] is SARS-CoV-2 Omicron BA.2.75 spike pseudovirus. On the procedure:
as §1

In experiment [4] the target is SARS-CoV-2 Omicron BA.5 spike pseudovirus. On the procedure:
as §1

In experiment [5] the target is SARS-CoV-2 Omicron BQ.1.1 spike pseudovirus. On the procedure: as §1
For experiment [6], the target named is SARS-CoV-2 Omicron XBB spike pseudovirus. On the procedure:
as §1

In experiment [7] the target is SARS-CoV-2 early D614G spike pseudovirus. On the procedure: as §1

B1: BD56-039 (protein)
chain 1: QVQLVESGGGVFQPGKSLRLSCAASEFSFSIYSMHWVRRAPGKGLEWVAQISYDGSSKSYADSVKGRFTISRDNSKNTLYLQMNSLRAEDTALYYCVRDLGYYNRSGHYHIERIDYWGQGTLVTVSS
chain 2: EIVMTQSPATLSVSPGERATLSCRASQSVGSNLAWYHQKPGQAPRLLIYDASTRATGIPARFSGSGSGTDFTLTISSLQSEDFALYYCQQYNNWPPITFGQGTRLEMK
Turning to B1, the “pseudovirus neutralization IC50” value in experiment [1], in experiment [2], in experiment [3], in experiment [4], in experiment [5] and in experiment [6] was greater than 10 µg/mL in each case. The “pseudovirus neutralization IC50” value in experiment [7] stood at 0.503 µg/mL.

B2: BD56-041 (protein)
chain 1: EVQLVESGGGLVKPGGSLRLSCAASGFTFSKAWMSWVRQVPGKGLEWVGRIKRKTDDGPTDYAAPVKGRFTISRDDSKNTLYLVMNSLKTEDTAVYYCTTDQGLTYYDVLTGQNGDYYYYGMDVWGQGTTVTVSS
chain 2: QSVLTQPPSVSAAPGQKVTISCSGSSSNIGNNSVSWYQQLPGTAPKLLIYDNNKRPSGIPDRFSGSKSGTSATLGITGLQTGDEADYYCGTWDSSLSAWVFGGGTKLTVL
As for B2, the “pseudovirus neutralization IC50” value in experiment [1], in experiment [2], in experiment [3], in experiment [4], in experiment [5] and in experiment [6] was greater than 10 µg/mL each time. The “pseudovirus neutralization IC50” value in experiment [7] is greater than 10 µg/mL.

B3: BD56-019 (protein)
chain 1: QVQLVQSGSQLKKPGASVKVSCKASGYTFTSYVMNWVRQAPGQGLEWMGLINTNTGNPTYAQGFTGRFVFSLDTSVSTVYLQISSLRAADTAVYFCARGGPYYYDSSGYYNVDYDYGMDVWGRGTTVTVSS
chain 2: QSVLTQPPSVSGAPGQRVTISCTGSSSNIGAGYDVHWYQQLPGTAPKLLIYGNSNRPSGVPDRFSGSKSGTSASLASTGLQAEDEADYYCQSYDSSLSAWVFGGGTKLTVL
Turning to B3, the “pseudovirus neutralization IC50” value was 0.615 µg/mL in experiment [1]; greater than 10 µg/mL in experiment [2]; greater than 10 µg/mL in experiment [3]; greater than 10 µg/mL in experiment [4]; greater than 10 µg/mL in experiment [5]; greater than 10 µg/mL in experiment [6]. Besides, the “pseudovirus neutralization IC50” value in experiment [7] turned out to be 0.276 µg/mL.

B4: BD56-029 (protein)
chain 1: QVQLVESGGGVVQPGRSLRLSCAASGFSFRSYGMHWVRQGPGKGLEWVAVIWFDGSGQYYADSVRGRFTISRDNSKNTLYLQMNSLAAEDTAVYFCAREKGYETSGYPFDAFDIWGQGTMVTVSS
chain 2: B3 chain 2 with G32I, Q40H, T44A, S54N, S77I, T78A, S98R, A99G, W100S, K107R
B4: the “pseudovirus neutralization IC50” value in experiment [1] was 1.86 µg/mL; in experiment [2], 3.64 µg/mL; in experiment [3] it was 1.49 µg/mL; in experiment [4], 2.37 µg/mL; in experiment [5], greater than 10 µg/mL; in experiment [6], greater than 10 µg/mL. For the same molecule, the “pseudovirus neutralization IC50” value in experiment [7] stood at 0.361 µg/mL.

B5: BD56-037 (protein)
chain 1: EVQLVESGGALVQPGGSLKLSCAASGFTFSGSPMHWVRQTSGKGLEWVGHIRIKANNYATAYTASVKGRFTISRDDSKNTAYLQMNSLKTGDTATYYCTTSTYYDSSGSEPNDYWGQGTLVTVSS
chain 2: DIQMTQSPSSLSASVGDRVTITCRASQGISNSLAWYQQKSGKAPTLLVYAASRLEVGVPSRFSGSGSGTDYTLTISSLQPDDFATYYCQQYSSTPRTFGGGTKVEI
As for B5, the “pseudovirus neutralization IC50” value in experiment [1] was 2.15 µg/mL; in experiment [2], greater than 10 µg/mL; in experiment [3], greater than 10 µg/mL; in experiment [4], greater than 10 µg/mL; in experiment [5] it was greater than 10 µg/mL; in experiment [6], greater than 10 µg/mL. Also, the “pseudovirus neutralization IC50” value in experiment [7] stood at 0.59 µg/mL.

B6: BD56-004 (protein)
chain 1: QVQLVESGGGLVKPGGSLRLSCAASGFTFSDYDMSWIRQAPGKGLEWVSKITSSRSAMHYADSVKGRFTISRDNAKNSLYLQMNSLRAEDTALYYCTRDLWTIKSGWYALDGQAFDNWGQGTLVTVSS
chain 2: QSVLTQPPSLSGAPGQRVTISCTGSSSNIGAGYDVHWYQQLPGTAPKLLIYENTNRPSGVPDRFSGSKSGTSASLAITGLQAEDEADYYCQSYDSGLSGPYWVFGGGTKLTVL
With B6, the “pseudovirus neutralization IC50” value in experiment [1] is 0.0895 µg/mL; in experiment [2], 0.834 µg/mL; in experiment [3], 0.304 µg/mL; in experiment [4], 0.574 µg/mL; in experiment [5], 0.692 µg/mL; in experiment [6] it was 0.916 µg/mL. Moreover, in experiment [7], the “pseudovirus neutralization IC50” value turned out to be 0.0154 µg/mL.

B7: BD56-032 (protein)
chain 1: QVQLQESGPGLVKPSQTLSLTCTVSGGSLNSGSYYWSWIRQPAGKGLEWIGRIYPTGDTNYNPSLKNRVTISLDRSKNQFSLKLTFVTAADTAVYYCARERNPTVFGVADDLPEVCWGQGTLVTVSS
chain 2: DIQMTQSPSSLSASVGDRVTITCQASQDIKNYLNWYQQKPGKAPKVLIYDASSLETGVPSRFSGSGSGTDFTLTISSLQPEDIATYFCQQYDNMVTFGGGTKVEI
As for B7, the “pseudovirus neutralization IC50” value was 0.0642 µg/mL in experiment [1]; 0.0411 µg/mL in experiment [2]; 0.0665 µg/mL in experiment [3]; greater than 10 µg/mL in experiment [4]; greater than 10 µg/mL in experiment [5]; 3.9 µg/mL in experiment [6]. The “pseudovirus neutralization IC50” value in experiment [7] was 0.0231 µg/mL.

B8: BD56-030 (protein)
chain 1: EVQLVESGGGVVRPGGSLRLSCAASGFTFADYGMNWVRQAPGKGLEWVSGIFWNGGSPAYADSVKGRFTISRDNAKNSLYLQMSSLRAEDTALYYCARGGDDSNAYLYYYYGMDVWGQGTTVTVSS
chain 2: EIVLTQSPGTLSFSPGERATLSCRTSQSVSSSFLAWYQQRPGQAPRLLIFSASNRATGIPDRFSGSGSGTDFTLTISRLEPEDFAVYYCQQYGSSPITFGQGTRLEIK
B8: the “pseudovirus neutralization IC50” value was 3.53 µg/mL in experiment [1]; greater than 10 µg/mL in experiment [2]; greater than 10 µg/mL in experiment [3]; 8.76 µg/mL in experiment [4]; greater than 10 µg/mL in experiment [5]; greater than 10 µg/mL in experiment [6]. The “pseudovirus neutralization IC50” value in experiment [7] came to 0.0367 µg/mL.

B9: BD57-082 (protein)
chain 1: QITLKESGPTLVKPTQTLTLTCTFSGLSLTTSGVGVAWIRQPPGKALEWLALIYWDDDERYSPSLQSRLAITKDTSKNHVVLTMTNMDPVDTATYYCALHRIAEVFDYWGQGALVTVSS
chain 2: QSALTQPRSVSGSPGQSVTISCTATSSDVGVYNYVSWYQQHPGKAPKLMIYEVNKRPSGVPDRFSGSKSGNTASLSISGLQAEDEADYYCCSYTDKSVVFGGGTKLTVL
For the molecule B9, the “pseudovirus neutralization IC50” value in experiment [1] is 0.00622 µg/mL; in experiment [2], 0.000425 µg/mL; in experiment [3], 0.00438 µg/mL; in experiment [4], 0.000714 µg/mL; in experiment [5] it was 2.9 µg/mL; in experiment [6], greater than 10 µg/mL. For the same molecule, the “pseudovirus neutralization IC50” value in experiment [7] was determined as 0.00157 µg/mL.

B10: BD57-098 (protein)
chain 1: QITLKESGPTLVKPTQTLTLTCTFSGFSLSTSGVGVAWIRQPPGKALEWLSLIYWDDDERYSPSLRSRLTITKDTSKNQVVLIMTSMDPVDTATYYCALHQPSRAGWSMGSWGQGTLVTVSS
chain 2: QSVLTQPPSVSAAPGQKVTISCSGSSSNIGDNFVSWYQQLPGAAPKLIIYDNNNRPSGIPDRFSASKSGTSATLGITGLQTGDEADYFCGTWESGGLSPWVFGGGTKLTVL
B10: the “pseudovirus neutralization IC50” value came out at 0.00354 µg/mL in experiment [1]; 0.00244 µg/mL in experiment [2]; 0.00154 µg/mL in experiment [3]; 0.00382 µg/mL in experiment [4]; 4.36 µg/mL in experiment [5]; 1.4 µg/mL in experiment [6]. Also, the “pseudovirus neutralization IC50” value in experiment [7] came out at 0.00237 µg/mL.

B11: BD56-028 (protein)
chain 1: QVQLVQSGAEVKKPGASVKVSCKSSGYTFTTSAVHWVRQAPGQRLEWMGWINPGTGDTKFSPKFQGRVTITRDTSASTAYMELSSLRSEDTAVYYCARDIEVAAETFEYWGQGTLVTVSS
chain 2: DIQMTQSPSTLSASVGDRVTITCRASQTISSWLAWYRQKPGKAPKLLIYDASSLESGVPSRFSGSGSGTEFTLTISSLQPDDFATYYCQQSSSYPTFGQGTKVEIK
As to B11, the “pseudovirus neutralization IC50” value in experiment [1] was 0.00254 µg/mL; in experiment [2], 0.00296 µg/mL; in experiment [3] it was 0.00325 µg/mL; in experiment [4] it was 0.182 µg/mL; in experiment [5], greater than 10 µg/mL; in experiment [6] it was greater than 10 µg/mL. In addition, in experiment [7], the “pseudovirus neutralization IC50” value stood at 0.0083 µg/mL.

B12: BD57-092 (protein)
chain 1: QVQLVQSGAEVKKPGASVKVSCKASGYTFTTYSLHWVRQAPGQRLEWMGWIIPGNGNTEYSQKFQGRVTITRDTSASTAYMELTSLTSEDTAVYYCAREGSGWYSVYFDLWGRGTLVIVSS
chain 2: DIQMTQSPSSLSASIGDRVTITCRASQTISSYLNWYQQKPGKAPKLLIYAASSLQSGVPSRFSGSGSGTDFTLTISSLQPEDFATYYCQQSYYSPYTFGQGTKLEIK
For B12, the “pseudovirus neutralization IC50” value was 7.56 µg/mL in experiment [1]; 8.21 µg/mL in experiment [2]; 7.66 µg/mL in experiment [3]; 7.22 µg/mL in experiment [4]; 3.6 µg/mL in experiment [5]; greater than 10 µg/mL in experiment [6]. Further, the “pseudovirus neutralization IC50” value in experiment [7] amounted to 0.702 µg/mL.
